PubChem BioAssay AID624099 – ICCB-Longwood | 2012

Assay: 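Knock-downs relieving repression by E2 of an HPV18 LCR luciferase reporter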 (primary screen)
System: human C33A cervical carcinoma cells (HPV-negative) stably expressing BPV1 E2 and an HPV18 LCR luciferase reporter
Reagents: siRNA pool against human genes, 40 nM
Timing: 72 h
Read-out: 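HPV18 LCR reporter light per well, converted to plate-wise z-scores that exclude control wells, and averaged over triplicate plates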
Reading the numbers: mean z-score and z-score: higher = stronger reporter signal, weaker E2 silencing
Active means: 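Mean z ≥ 2 together with z ≥ 2 in two or more of the three replicates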
The whole screen tested about 21,000 reagents; below is an unselected part. Over the whole deposit, 497 (2.4%) are marked active. 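Higher z means weaker E2 silencing; only reporter increases were scored, and knock-downs that hurt cell survival may mask genuine repressor factors.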 Reagent sequences are not shown.

{"target gene": "SLC25A15", "mean z-score": -0.82, "z-score, replicate A": -0.72, "z-score, replicate B": -0.86, "z-score, replicate C": -0.87, "Outcome": "inactive"}
{"target gene": "LOC101928906", "mean z-score": 0.72, "z-score, replicate A": 0.76, "z-score, replicate B": 0.56, "z-score, replicate C": 0.86, "Outcome": "inactive"}
{"target gene": "CXADR (CXADR cell adhesion molecule)", "mean z-score": 0.57, "z-score, replicate A": 0.56, "z-score, replicate B": 1, "z-score, replicate C": 0.16, "Outcome": "inactive"}
{"target gene": "NCR3LG1 (natural killer cell cytotoxicity receptor 3 ligand 1)", "mean z-score": -1.26, "z-score, replicate A": -1.37, "z-score, replicate B": -1.47, "z-score, replicate C": -0.96, "Outcome": "inactive"}
{"target gene": "ACP6 (acid phosphatase 6, lysophosphatidic)", "mean z-score": -0.62, "z-score, replicate A": -0.82, "z-score, replicate B": -0.42, "z-score, replicate C": -0.63, "Outcome": "inactive"}
{"target gene": "IL13RA1 (interleukin 13 receptor subunit alpha 1)", "mean z-score": 0.82, "z-score, replicate A": 0.78, "z-score, replicate B": 0.91, "z-score, replicate C": 0.77, "Outcome": "inactive"}
{"target gene": "ZNF524 (zinc finger protein 524)", "mean z-score": -0.88, "z-score, replicate A": -0.91, "z-score, replicate B": -0.41, "z-score, replicate C": -1.33, "Outcome": "inactive"}

Reformatted: results already given
{"target gene":"LOC101928906","mean z-score":0.72,"z-score, replicate A":0.76,"z-score, replicate B":0.56,"z-score, replicate C":0.86,"Outcome":"inactive"}
{"target gene":"CXADR (CXADR cell adhesion molecule)","mean z-score":0.57,"z-score, replicate A":0.56,"z-score, replicate B":1,"z-score, replicate C":0.16,"Outcome":"inactive"}

Additional entries:
{"target gene": "ANKMY2 (ankyrin repeat and MYND domain containing 2)", "mean z-score": -0.17, "z-score, replicate A": -0.08, "z-score, replicate B": -0.04, "z-score, replicate C": -0.37, "Outcome": "inactive"}
{"target gene": "WAS (WASP actin nucleation promoting factor)", "mean z-score": -0.35, "z-score, replicate A": -0.23, "z-score, replicate B": -0.62, "z-score, replicate C": -0.19, "Outcome": "inactive"}
{"target gene": "LRRC74B (leucine rich repeat containing 74B)", "mean z-score": 0, "z-score, replicate A": -0.19, "z-score, replicate B": -0.12, "z-score, replicate C": 0.31, "Outcome": "inactive"}
{"target gene": "CARD10 (caspase recruitment domain family member 10)", "mean z-score": -1.22, "z-score, replicate A": -1.03, "z-score, replicate B": -1.57, "z-score, replicate C": -1.07, "Outcome": "inactive"}
{"target gene": "PDE10A (phosphodiesterase 10A)", "mean z-score": -1.02, "z-score, replicate A": -0.87, "z-score, replicate B": -0.99, "z-score, replicate C": -1.19, "Outcome": "inactive"}
{"target gene": "ATP2B4 (ATPase plasma membrane Ca2+ transporting 4)", "mean z-score": 1.33, "z-score, replicate A": 1.43, "z-score, replicate B": 1.2, "z-score, replicate C": 1.36, "Outcome": "inactive"}
{"target gene": "F2RL2 (coagulation factor II thrombin receptor like 2)", "mean z-score": 0.19, "z-score, replicate A": 0.6, "z-score, replicate B": 0.04, "z-score, replicate C": -0.08, "Outcome": "inactive"}
{"target gene": "LINC01551 (long independently transcribed non-coding RNA 1551)", "mean z-score": 1.8, "z-score, replicate A": 1.55, "z-score, replicate B": 1.86, "z-score, replicate C": 1.98, "Outcome": "inactive"}
{"target gene": "LOC285422", "mean z-score": 1.95, "z-score, replicate A": 1.55, "z-score, replicate B": 2.19, "z-score, replicate C": 2.09, "Outcome": "inactive"}
{"target gene": "ENPP6 (ectonucleotide pyrophosphatase/phosphodiesterase 6)", "mean z-score": 0.56, "z-score, replicate A": 0.95, "z-score, replicate B": 0.42, "z-score, replicate C": 0.32, "Outcome": "inactive"}
{"target gene": "MAN1C1 (mannosidase alpha class 1C member 1)", "mean z-score": -1.75, "z-score, replicate A": -1.68, "z-score, replicate B": -1.74, "z-score, replicate C": -1.83, "Outcome": "inactive"}
{"target gene": "KHSRP (KH-type splicing regulatory protein)", "mean z-score": -0.99, "z-score, replicate A": -0.46, "z-score, replicate B": -1.17, "z-score, replicate C": -1.33, "Outcome": "inactive"}
{"target gene": "REG3G (regenerating family member 3 gamma)", "mean z-score": 2.28, "z-score, replicate A": 2.06, "z-score, replicate B": 2.27, "z-score, replicate C": 2.51, "Outcome": "active"}
{"target gene": "CCNB3 (cyclin B3)", "mean z-score": 0.42, "z-score, replicate A": 0.3, "z-score, replicate B": 0.5, "z-score, replicate C": 0.45, "Outcome": "inactive"}
